Pooled drug test results. Numbers come from NIAID ChemDB, via PubChem.

All rows: tests in culture; organism: HIV-1

a–b is a range or a potency band. ECn is the concentration giving n% inhibition of infection, replication or growth. An empty or dashed field is not shown. Neighbouring rows are from separate reports.

| smiles | changes | read by | cells | endpoint | strain | value |
|---|---|---|---|---|---|---|
| C[C@@H]1CCO[C@H]2Cn3cc(C(=O)NCc4ccc(F)cc4F)c(=O)c(O)c3C(=O)N12 | WT | luciferase | TZM-bl | EC50 | NL4-3 | 0.0008 µM |
| C1CCC(NC2=NCCN2)CCCC(NC2=NCCN2)C1 |  | entry / fluorescence | HEK 293 | EC50 | NL4-3 | 6.62 µM |
| CCC(=O)c1ccc(F)c([C@@H]2C[C@@H]2NC(=O)Nc2ccc(C#N)cn2)c1O | NNRTI-resistant (RT N348I) | β-galactosidase / luminescence | TZM-bl | EC50 | LAI | 0.00099 µM |
| C=C(C)[C@@H]1CC[C@]2(C(=O)NCCCCCCCC(=O)N[C@@H](CC(C)C)[C@@H](O)CC(=O)O)CC[C@]3(C)[C@H](CC[C@@H]4[C@@]5(C)CC[C@H](O)C(C)(C)[C@@H]5CC[C@]43C)[C@@H]12 | GP41-E109D A109D | syncytia | HeLa P4 + HeLa | EC50 | LAI | <10 µM |
| CC1(C)c2nc(C(=O)NCc3ccc(F)cc3)c(O)c(=O)n2CCN1CC#N |  | p24 | MT-4 | EC95 |  | <1 µM |
| Cc1ncc(-c2cnc(SCC(C)C)c(F)c2)c(N2CCC(C)(C)CC2)c1[C@H](OC(C)(C)C)C(=O)O |  | luminescence | MT-2 | EC50 | NL4-3 | 0.0047 µM |
| Cc1cn([C@H]2C[C@H](CF)[C@@H](CO)O2)c(=O)[nH]c1=O |  | cytopathic effect / MTT | MT-2 | EC50 | IIIB | >100 µM |
| C=C(C)[C@@H]1CC[C@]2(NCCCN3CCOCC3)CC[C@]3(C)[C@H](CC[C@@H]4[C@@]5(C)CC=C(c6ccc(C(=O)O)cc6)C(C)(C)[C@@H]5CC[C@]43C)[C@@H]12 |  |  | MT-2 | EC50 | NL4-3 | <0.1 µM |
| C1CCC(NC2=NCCN2)CCCCC(NC2=NCCN2)CC1 |  | entry / fluorescence | HEK 293 | EC50 | NL4-3 | 15.5 µM |
| Nc1ccn([C@@H]2OCC(CO)=C2F)c(=O)n1 |  |  |  | EC50 |  | >100 µg/mL |
| Cc1ccc(CNC(=O)c2nc3n(c(=O)c2O)CCNCC3N(C)C(=O)C(=O)N(C)C)cc1Cl |  | p24 | MT-4 | EC95 |  | <1 µM |
| Cc1cn([C@@H]2O[C@H](CO)[C@@H](CN=[N+]=[N-])[C@@H]2O)c(=O)[nH]c1=O |  | cytopathic effect / MTT | MT-2 | EC50 | IIIB | >100 µM |
| CC(Oc1nsnc1-c1cccc2ccccc12)C(=O)Nc1ccccc1Cl |  | MTT | MT-4 | EC50 | IIIB | 19 µM |
| CCOCn1c(Cc2cc(F)ccc2F)c(CC)c(=O)[nH]c1=O |  | MTT | MT-4 | EC50 | EFV-resistant (K103R V179D P225H) | >100 µM |
| Cc1ccc(OCCOc2ncc(-c3cnc(C)c([C@H](OC(C)(C)C)C(=O)O)c3N3CCC(C)(C)CC3)cc2F)c(Cl)c1 |  | luminescence | MT-2 | EC50 | NL4-3 | 0.0026 µM |
| CCN(CC)CCN1C(=O)c2cc(OC)c(OC)c3c2c1cc1ccccc13 |  | luciferase / entry | TZM-bl | EC50 | NL4-3 | 3.07 µM |
| Cc1ccc(CNC(=O)c2nc3n(c(=O)c2O)CCN(C)CC3N(C)C(=O)C(=O)N(C)C)cc1Cl |  | p24 | MT-4 | EC50 |  | <1 µM |
| CCc1c(Cc2cccc(Cc3[nH]c(=S)[nH]c(=O)c3CC)c2)[nH]c(=S)[nH]c1=O | RT-K103N Y181C | cytopathic effect / MTT | MT-4 | EC50 | RT-K103N+Y181C NNRTI-resistant | >100 µM |
| Cc1ncc(-c2ccc(OCCOc3ccccc3Cl)cn2)c(N2CCC(C)(C)CC2)c1[C@H](OC(C)(C)C)C(=O)O |  | luminescence | MT-2 | EC50 | NL4-3 | 0.0011 µM |
| Cc1cn([C@@H]2O[C@H](C3CO[Si](C(C)C)(C(C)C)O[Si](C(C)C)(C(C)C)O3)C3(OS(=O)(=O)C=C3N)[C@H]2O)c(=O)[nH]c1=O |  | syncytia | CEM | EC50 | IIIB | >6.3 µM |
| C#CCOCn1c(Cc2c(F)c(F)cc(F)c2F)c(CC)c(=O)[nH]c1=O | K103N + Y181C | MTT | MT-4 | EC50 | A17 | >5 µM |
| Cc1ccc(OCCN(C)c2ccc(-c3cnc(C)c([C@H](OC(C)(C)C)C(=O)O)c3N3CCC(C)(C)CC3)nc2)cc1F |  | luminescence | MT-2 | EC50 | NL4-3 | 0.0013 µM |
| C=CCOCn1c(Cc2cc(F)ccc2F)c(CC)c(=O)[nH]c1=O |  | MTT | MT-4 | EC50 | EFV-resistant (K103R V179D P225H) | 70 µM |
| Cc1cc(C)cc(S(=O)(=O)c2c(C(N)=O)[nH]c3c(Cl)cc(Cl)cc23)c1 | RT-Y181C | p24 | C8166 | EC50 | IIIB | >100 µM |
| Cc1ccc(OCCN(C)c2ccc(-c3cnc(C)c([C@H](OC(C)(C)C)C(=O)O)c3N3CCC(C)(C)CC3)cn2)c(Cl)c1 |  | luminescence | MT-2 | EC50 | NL4-3 | 0.004 µM |
| O=C(CNC(=O)COc1ccccc1)NCc1ccc(C(=O)N2CCCCC2)cc1 |  | RT activity | PBMC | EC50 | CMU08 | 17.7 µM |
| Cc1cn([C@H]2C=C[C@@H](CO)O2)c(=O)[nH]c1=O |  | p24 | H9 | EC50 | MN | 5.84 µM |
| CCc1c(Cc2cccc(Cc3nc(SC(C)C)[nH]c(=O)c3CC)c2)nc(SC(C)C)[nH]c1=O | RT-Y181C | cytopathic effect / MTT | MT-4 | EC50 | NNRTI-resistant | >36 µM |
| Fc1cccc(Cn2cc(COc3nsnc3-c3cccc4ccccc34)nn2)c1 |  | MTT | MT-4 | EC50 | IIIB | >67 µM |
| Nn1cc[nH]c1=S |  |  |  | EC50 | IIIB | 0.2–4 µg/mL |
| COc1cc2cc3c4c(cc(OC)c(OC)c4c2cc1OC)C(=O)N3CCN1CCCCC1 |  | luciferase | TZM-bl | EC50 | NL4-3 | 1.03 µM |
| CCOC(=O)c1ccc(NC(=O)COc2nsnc2-c2cccc3ccccc23)c(Br)c1 |  | MTT | MT-4 | EC50 | IIIB | >98 µM |
| Cc1cn([C@@H]2O[C@H](CO)[C@@H](CF)[C@@H]2O)c(=O)[nH]c1=O |  | cytopathic effect / MTT | MT-2 | EC50 | IIIB | >100 µM |
| Cc1ncc(-c2cnc(OC(C)COCc3ccccc3)c(F)c2)c(N2CCC(C)(C)CC2)c1[C@H](OC(C)(C)C)C(=O)O |  | luminescence | MT-2 | EC50 | NL4-3 | 0.0025 µM |
| COc1ccc2cc3c4c(cc(OC)c(OC)c4c2c1)C(=O)N3CCN1CCCCC1 |  | luciferase | TZM-bl | EC50 | NL4-3 | 1.07 µg/mL |
| Clc1ccc(Cn2cc(COc3nsnc3-c3cccc4ccccc34)nn2)cc1 |  | MTT | MT-4 | EC50 | IIIB | >115 µM |
| Nc1nc(=O)n([C@H]2CC[C@@H](CO)O2)cc1F |  | syncytia | MT-4 | EC50 | RF | 0.025 µM |
| Cn1cc(NC(=O)Nc2cc(C(=O)Nc3cc(C(=O)Nc4ccc(S(=O)(=O)O)c5cc(S(=O)(=O)O)ccc45)n(C)c3)n(C)c2)cc1C(=O)Nc1cc(C(=O)Nc2ccc(S(=O)(=O)O)c3cc(S(=O)(=O)O)ccc23)n(C)c1 |  | cytopathic effect / XTT | MT-4 | EC50 | 6R(AZT) | 4.5 µM |
| CCOCn1c(Cc2ccccc2)c(C(C)C)c(=O)[nH]c1=O |  | cytopathic effect / MTT | MT-4 | EC50 |  | 0.03 µM |
| Nc1ccn([C@@H]2CS[C@H](CO)O2)c(=O)n1 |  | MTT | MT-4 | EC50 | IIIB | 5.5 µM |
| CCc1c(Cc2cccc(Cc3nc(N4CCCCC4)[nH]c(=O)c3CC)c2)nc(N2CCCCC2)[nH]c1=O | RT-K103N Y181C | cytopathic effect / MTT | MT-4 | EC50 | RT-K103N+Y181C NNRTI-resistant | >80 µM |
| CN1Cn2c(nc(C(=O)NCc3ccc(F)cc3)c(O)c2=O)C12CCCCC2 |  | p24 | MT-4 | EC95 |  | <1 µM |
| Cc1cn([C@@H]2O[C@H](C3CO[Si](C(C)C)(C(C)C)O[Si](C(C)C)(C(C)C)O3)C3(OS(=O)(=O)C=C3N)[C@H]2O[Si](C)(C)C(C)(C)C)c(=O)[nH]c1=O |  | cytopathic effect | MT-4 | EC50 | IIIB | >26.7 µM |
| C=C(C)[C@@H]1CC[C@]2(CNCCC(=O)N3CCn4cc(C(F)(F)F)cc4C3)CC[C@]3(C)[C@H](CC[C@@H]4[C@@]5(C)CC=C(c6ccc(C(=O)O)cc6)C(C)(C)[C@@H]5CC[C@]43C)[C@@H]12 |  |  | MT-2 | EC50 | NL4-3 | <0.1 µM |
| Nc1cc2c3c(cc4ccccc4c3c1)N(CCN1CCCCC1)C2=O |  | luciferase | TZM-bl | EC50 | NL4-3 | 2 µM |
| Cc1cn([C@H]2C[C@H](N=[N+]=[N-])[C@@H](CO)O2)c(=O)[nH]c1=O |  | p24 / ELISA | C8166 | EC50 | 89.6 | 0.00589 µM |
| CCOCn1c(Cc2cccc(F)c2)c(C(C)C)c(=O)[nH]c1=O |  | MTT | MT-4 | EC50 | N119 (Y181C) | 14 µM |
| C=CCOCn1c(Cc2cccc(Cc3[nH]c(=O)[nH]c(=O)c3CC)c2)c(CC)c(=O)[nH]c1=O | RT-Y181C | cytopathic effect / MTT | MT-4 | EC50 | NNRTI-resistant | >100 µM |
| CN(C)C(=O)C(=O)N(C)C1CN(C2CC2)CCn2c1nc(C(=O)NCc1ccc(F)c(Cl)c1)c(O)c2=O |  | p24 | MT-4 | EC95 |  | <1 µM |
| Cc1cn([C@H]2C[C@H](N=[N+]=[N-])[C@@H](CO)O2)c(=O)[nH]c1=O |  | luminescence | TZM-bl | EC50 | VB59 | 0.02 µg/mL |
| Cc1cc(CNC(=O)c2nc3n(c(=O)c2O)CCN(C2CC2)CC3N(C)C(=O)C(=O)N(C)C)ccc1F |  | p24 | MT-4 | EC50 |  | <1 µM |
| O=C(O)[C@H]1O[C@@H](Oc2cc3oc(-c4ccc(O)cc4)cc(=O)c3c(O)c2O)[C@H](O)[C@@H](O)[C@@H]1O |  | syncytia | C8166 | EC50 | IIIB | 26 µM |

3 of the rows above, restated:

{"smiles": "COc1ccc2cc3c4c(cc(OC)c(OC)c4c2c1)C(=O)N3CCN1CCCCC1", "read by": "luciferase", "cells": "TZM-bl", "endpoint": "EC50", "strain": "NL4-3", "value": "1.07 µg/mL"}
{"smiles": "Cc1cn([C@@H]2O[C@H](C3CO[Si](C(C)C)(C(C)C)O[Si](C(C)C)(C(C)C)O3)C3(OS(=O)(=O)C=C3N)[C@H]2O)c(=O)[nH]c1=O", "read by": "syncytia", "cells": "CEM", "endpoint": "EC50", "strain": "IIIB", "value": ">6.3 µM"}
{"smiles": "C=CCOCn1c(Cc2cccc(Cc3[nH]c(=O)[nH]c(=O)c3CC)c2)c(CC)c(=O)[nH]c1=O", "changes": "RT-Y181C", "read by": "cytopathic effect / MTT", "cells": "MT-4", "endpoint": "EC50", "strain": "NNRTI-resistant", "value": ">100 µM"}